Measurements reported in publication PMC4077696 (PLoS Biology, 2014).
Counter-ions that a name gives are not always drawn.

Tested on: P. falciparum 3D7
Settings: for Effect of timed addition across parasite stages: 024, 025 15 µM; for Effect of timed addition across parasite stages / Effect of 30 min treatment of rings before inhibitor-free medium: chloroquine 150 ng/ml, artemisinin 100 ng/ml
[1] = 15 µM, timed addition, parasitemia at 72 h

SMILES: CC(C)C[C@H](NC(=O)[C@@H](NC(=O)[C@H](CCCNC(=N)N)NS(=O)(=O)Cc1ccccc1)C(C)C)[C@@H](O)CC(=O)NCCc1ccccc1 [compound 916, PhCH2SO2-Arg(NH2)-Val-Sta-NH(CH2)2Ph .TFA]
- Treatment duration that adversely affected growth (15 µM from rings, wash-out, parasitemia at 72 h): > 23 h
- Growth after treatment of rings for 1–20 h then inhibitor-free medium (15 µM, parasitemia at 72 h): completely recovered
- Effect of addition to rings or early trophozoites [1]: lethal
- Effect of addition to schizonts [1]: resistant

SMILES: CC(C)C[C@H](NC(=O)[C@@H](NC(=O)[C@H](CCCCN)NS(=O)(=O)Cc1ccccc1)C(C)C)[C@@H](O)CC(=O)NCCc1ccccc1 [compound 024, PhCH2SO2-Lys(NH2)-Val-Sta-NH(CH2)2Ph .TFA]
- Growth after wash-out at any parasite stage, in words (15 µM): did not affect growth
- Effect of timed addition across parasite stages: did not have any effect on parasite growth

SMILES: C[C@@H]1CC[C@H]2[C@@H](C)C(=O)O[C@@H]3O[C@@]4(C)CC[C@@H]1[C@]32OO4 [artemisinin, reference compound]
- Effect of timed addition across parasite stages: sensitive
- Effect of 30 min treatment of rings before inhibitor-free medium: killed parasites

SMILES: CCN(CC)CCCC(C)Nc1ccnc2cc(Cl)ccc12 (stereo not drawn) [chloroquine, reference compound]
- Effect of timed addition across parasite stages: sensitive
- Effect of 30 min treatment of rings before inhibitor-free medium: killed parasites

SMILES: CC[C@H](C)[C@H](NC(=O)[C@@H](NC(=O)[C@H](CCCNC(=N)N)NS(=O)(=O)Cc1ccccc1)C(C)C)[C@@H](O)CC(=O)NCCc1ccccc1 [compound 025, PhCH2SO2Arg-Val-AHMHpA-NH(CH2)2Ph . TFA]
- Growth after wash-out at any parasite stage, in words (15 µM): did not affect growth
- Effect of timed addition across parasite stages: did not have any effect on parasite growth
